From publication PMC10276184
Construct, isoform or probe ends are uncertain for at least one entry.

Columns and labels:
Assay in all cases: fluorescence polarization
[1] = target: JBP1 wt full-length (Leishmania tarentolae) (UniProt Q9U6M1); details: T7 = base J (beta-D-glucopyranosyloxymethyluracil); printed GGCAGCJGCAACAA; 20 mM HEPES pH 7.5, 140 mM NaCl, 2 mM MgCl2, 1 mM TCEP, 1 mg/ml chicken ovalbumin, 0.05% Tween 20, 1 nM TAMRA-DNA; dilutions prepared on ice; recombinant protein; residues 1-827
[2] = target: JDBD-H440A (Leishmania tarentolae) (UniProt Q9U6M1); details: T7 = base J (beta-D-glucopyranosyloxymethyluracil); printed GGCAGCJGCAACAA; 20 mM HEPES pH 7.5, 140 mM NaCl, 2 mM MgCl2, 1 mM TCEP, 1 mg/ml chicken ovalbumin, 0.05% Tween 20, 1 nM TAMRA-DNA; dilutions prepared on ice; recombinant protein; protein details: His6
[3] = target: Δ23-JBP1 (Leishmania tarentolae) (UniProt Q9U6M1); details: T7 = base J (beta-D-glucopyranosyloxymethyluracil); printed GGCAGCJGCAACAA; 20 mM HEPES pH 7.5, 140 mM NaCl, 2 mM MgCl2, 1 mM TCEP, 1 mg/ml chicken ovalbumin, 0.05% Tween 20, 1 nM TAMRA-DNA; dilutions prepared on ice; recombinant protein; residues 23-827
[4] = target: Δ38-JBP1 (Leishmania tarentolae) (UniProt Q9U6M1); details: T7 = base J (beta-D-glucopyranosyloxymethyluracil); printed GGCAGCJGCAACAA; 20 mM HEPES pH 7.5, 140 mM NaCl, 2 mM MgCl2, 1 mM TCEP, 1 mg/ml chicken ovalbumin, 0.05% Tween 20, 1 nM TAMRA-DNA; dilutions prepared on ice; recombinant protein; residues 38-827
[5] = target: JDBD-E437A (Leishmania tarentolae) (UniProt Q9U6M1); details: T7 = base J (beta-D-glucopyranosyloxymethyluracil); printed GGCAGCJGCAACAA; 20 mM HEPES pH 7.5, 140 mM NaCl, 2 mM MgCl2, 1 mM TCEP, 1 mg/ml chicken ovalbumin, 0.05% Tween 20, 1 nM TAMRA-DNA; dilutions prepared on ice; recombinant protein; protein details: His6

With GGCAGCTGCAACAA (double strand) [J-DNA] the Kd [1] was 6.4 nM, the Kd [2] was 57 nM and the Kd [3] was 20.8 nM. It also gave a Kd [4] of 31.2 nM and a Kd [5] of 30 nM.
